Anti-infective test results gathered from many reports (values: NIAID ChemDB through PubChem).

All rows: whole-cell or culture tests; agent: Herpes simplex virus 2; endpoint: EC50

Neighbouring rows are from separate reports. An empty or dashed field is not shown. ECn: concentration that inhibits the pathogen or its effect by n%.

compound | cells | read by | strain or isolate | value
Cc1cn([C@@H]2O[C@H](CO)[C@H]2CO)c(=O)[nH]c1=O | HFF | plaque count | HEET | 3 µg/mL
Cc1cn([C@@H]2O[C@H](COP(=O)(O)O)[C@@H](O)[C@H]2O)c(=O)nc1N |  |  | G | >400 µg/mL
Nc1nc2c(ncn2COCCO)c(=O)[nH]1 | HFF | cytopathic effect | G | 0.5 µg/mL
CSCc1cn([C@H]2C[C@H](O)[C@@H](CO)O2)c(=O)[nH]c1=O | PRK | cytopathic effect | LYONS | 4 µg/mL
CCCCCCCCc1cn([C@@H]2O[C@H](COP(=O)(O)O)[C@@H](O)[C@H]2O)c(=O)nc1N |  |  | LYONS | >400 µg/mL
O=c1ccn([C@@H]2O[C@H](CO)[C@@H](O)[C@@H]2F)c(=O)[nH]1 | VERO | plaque count | G-FMAU-C1 | >40 µM
COC(=O)C(Cc1c[nH]c2ccccc12)NP(=O)(O)OCC1C/C1=C/n1cnc2c(N)ncnc21 | HFF | cytopathic effect |  | >184 µM
O=C(O)P(=O)(O)O | MEF | plaque count | E-326 | 26.9 µg/mL
CC(=O)OC1CC2(CO1)COC(C)(C)O2 | CCL18 |  |  | >100 µM
Nc1nc2c(ncn2COCCO)c(=O)[nH]1 | HELF | plaque count | MS | 0.11 µg/mL
Nc1ncnc2c1ncn2[C@@H]1O[C@H](CO)[C@@H](O)[C@H]1OP(=O)(O)OC[C@H]1O[C@@H](n2cnc3c(N)ncnc32)[C@H](OP(=O)(O)OC[C@H]2O[C@@H](n3cc(/C=C/Br)c(=O)[nH]c3=O)C[C@@H]2O)[C@@H]1O | PRK | cytopathic effect | LYONS | 70 µg/mL
Nc1nc(N)c2ncn([C@H]3S[C@H](CO)[C@@H](O)[C@@H]3F)c2n1 |  | cytopathic effect | MS | >27 µg/mL
CCO/N=C/c1ccc(OCCC2CCN(c3ccc(Cl)nn3)CC2)cc1 | KB | virus yield | HGP | 0.0004 µM
COC(=O)[C@H](C)NP(=O)(OC[C@H]1C/C1=C/n1cnc2c(OC)nc(N)nc21)Oc1ccccc1 |  |  |  | 0.6 µM
Nc1ccn([C@H]2O[C@@H](CO)[C@H](O)[C@H]2F)c(=O)n1 | VERO | plaque count | G | 0.07 µM
CC1(C)OCC2(CO[C@H](n3ccc(NC(=O)c4ccccc4)nc3=O)C2)O1 | CCL18 |  |  | >100 µM
Nc1nc2c(ncn2COCCO)c(=O)[nH]1 | PRK | cytopathic effect | 196 | 0.02 µg/mL
Nc1nc(=O)n([C@@H]2O[C@H](CO)[C@@H](O)[C@@H]2F)cc1I | HELF | plaque count | MS | 0.019 µg/mL
CCc1cn([C@@H]2OC3COP(=O)(O)OC3[C@H]2O)c(=O)nc1N |  |  | G | >400 µg/mL
Nc1ncnc2c1ncn2[C@H]1S[C@H](CO)[C@@H](O)[C@@H]1F |  | cytopathic effect | MS | >27 µg/mL
Nc1nc(=O)n([C@@H]2O[C@H](CO)[C@@H](O)[C@@H]2F)cc1I | PRK | cytopathic effect | G | <0.03 µg/mL
Nc1ncnc2c1ncn2[C@H]1C[C@]12C[C@H]2CO | VERO |  |  | >50 µM
CC(=O)OC[C@H]1[C@H](COC(C)=O)[C@@H](CO)O[C@H]1n1cnc2c(N)ncnc21 | MEF | plaque count | Clinical isolate HEETER | 160 µM
O=c1[nH]c(=O)n([C@@H]2S[C@H](CO)[C@@H](O)[C@@H]2F)cc1CCCl |  | cytopathic effect | MS | 3 µg/mL
Cc1cn([C@@H]2O[C@H](CO)[C@@H](O)[C@@H]2F)c(=O)[nH]c1=O | HELF | plaque count | HG-52 | 0.007 µg/mL
O=c1[nH]c(=O)n([C@@H]2O[C@H](CO)[C@@H](O)[C@@H]2F)cc1I | VERO | cytopathic effect | K979 | <0.1 µg/mL
[N-]=[N+]=NCc1cn([C@H]2C[C@H](O)[C@@H](CO)O2)c(=O)[nH]c1=O | PRK | cytopathic effect | LYONS | 7 µg/mL
Nc1ccn(C[C@@H](CO)OCP(=O)(O)O)c(=O)n1 | HFF | plaque count | X-79 | 2.2 µg/mL
Cn1cc(C(=O)NCc2ccc(Cl)cc2)c(=O)c2cc(CN3CCOCC3)ccc21 | HFF | plaque count | Heeter (wild type) | 3.5 µM
Nc1nc2c(ncn2CCCCO)c(=O)[nH]1 | HEL | plaque count | 91075 | 6 µM
Cc1nc(N(C)C(=O)Cc2ccc(-c3ccccn3)cc2)sc1S(N)(=O)=O | HEF | plaque count | 2 (G) | 0.023 µM
Nc1nc2c(ncn2COCCO)c(=O)[nH]1 | VERO | cytopathic effect | MS | 1.25 µg/mL
O=c1[nH]c(=O)n([C@H]2S[C@H](CO)[C@@H](O)[C@@H]2F)cc1CCO |  | cytopathic effect | MS | >27 µg/mL
O=c1ccn([C@H]2C[C@](O)(CO)CO2)c(=O)[nH]1 | CCL18 |  |  | >100 µM
COC(=O)[C@H](C)NP(=O)(OCC1C/C1=C/n1cnc2c(N)ncnc21)Oc1ccccc1 |  |  |  | >1 µM
Nc1nc2c(ncn2COCCO)c(=O)[nH]1 | VERO | plaque count | 196 | 0.4 µM
COc1ccc2nc3n[nH]c(C)c3c(SCc3ccco3)c2c1 | FS-85 | plaque count |  | 0.7 µg/mL
O=c1[nH]c(=O)n([C@@H]2S[C@H](CO)[C@@H](O)[C@@H]2F)cc1CCO |  | cytopathic effect | MS | >27 µg/mL
Nc1ncnc2c1ncn2[C@@H]1C[C@H](CO)[C@@H](O)[C@@H]1O | VERO | plaque count | G-FAU-C2 | 24 µM
O=Cc1cn([C@H]2C[C@H](O)[C@@H](CO)O2)c(=O)[nH]c1=O | PRK | cytopathic effect | G | 1 µg/mL
Nc1nc2c(ncn2CCC(CO)CO)c(=O)[nH]1 | HEL | plaque count | 186 | 2.7 µg/mL
Nc1nc(N)c2ncn([C@@H]3S[C@H](CO)[C@@H](O)[C@@H]3F)c2n1 |  | cytopathic effect | MS | 0.037 µg/mL
CCCCc1cn([C@@H]2OC3COP(=O)(O)OC3[C@H]2O)c(=O)nc1N |  |  | 196 | >400 µg/mL
Nc1nc2c(ncn2CC[C@@H](O)CO)c(=O)[nH]1 | VERO | plaque count | 91075 | 4 µM
Nc1nc2c(ncn2COC(CO)CO)c(=O)[nH]1 | HEP-2 | cytopathic effect | K979 | <0.3 µg/mL
O=c1[nH]c(=O)n([C@H]2C[C@H](O)[C@@H](CO)O2)cc1F | PRK | cytopathic effect | G | 7 µg/mL
O=c1[nH]c(=O)n([C@@H]2O[C@H](COP(=O)(O)O)[C@@H](O)[C@@H]2O)cc1/C=C/Br | HELF | plaque count | MS | 15 µg/mL
Nc1ncnc2c1ncn2[C@@H]1O[C@H](COP(=O)(O)O)[C@@H](O)[C@@H]1O | MEF | plaque count | E-196 | 29 µM
O=c1[nH]c(=O)n([C@H]2C[C@H](O)[C@@H](CO)O2)cc1I | VERO | cytopathic effect | K979 | <1 µg/mL
Cc1cn([C@@H]2CC3(CO2)COC(C)(C)O3)c(=O)[nH]c1=O | CCL18 |  |  | >100 µM
O=c1[nH]c(=O)n([C@@H]2O[C@H](CO)[C@@H](O)[C@@H]2F)cc1I | VERO | plaque count | G-FIAU-C1 | 15 µM
O=C(NCc1ccc(Cl)cc1)c1cn2c3c(cc(CN4CCOCC4)cc3c1=O)OC(c1cccnc1)C2 | HFF | plaque count | X-79 (WILD TYPE) | >13.2 µM
Cc1cn([C@@H]2O[C@H](CO)[C@@H](O)[C@@H]2F)c(=O)[nH]c1=O | VERO | plaque count | G-FAC-C1 | 8.6 µM
O=c1[nH]c(=O)n([C@H]2C[C@H](O)[C@@H](CO)O2)cc1I | PRK | cytopathic effect | 196 | 0.2 µg/mL
Nc1nc(=O)n(C2CC(O)C(CO)O2)cc1CCCl | PRK | cytopathic effect | G | 8.7 µg/mL
CCCCCCc1cn([C@@H]2O[C@H](COP(=O)(O)O)[C@@H](O)[C@H]2O)c(=O)nc1N |  |  | 196 | >400 µg/mL
O=c1[nH]c(=O)n([C@H]2C[C@H](O)[C@@H](CO)O2)cc1CCCl | PRK | cytopathic effect | G | 2.1 µg/mL
Nc1nc(NC2CC2)c2ncn(C=C3CC3CO)c2n1 |  |  |  | 41 µM
Nc1nc2c(ncn2COCCO)c(=O)[nH]1 | VERO | plaque count | HG-52 | 0.5 µM

3 of the rows above, restated:

compound | cells | read by | strain or isolate | value
CCO/N=C/c1ccc(OCCC2CCN(c3ccc(Cl)nn3)CC2)cc1 | KB | virus yield | HGP | 0.0004 µM
Nc1ncnc2c1ncn2[C@@H]1C[C@H](CO)[C@@H](O)[C@@H]1O | VERO | plaque count | G-FAU-C2 | 24 µM
Cc1nc(N(C)C(=O)Cc2ccc(-c3ccccn3)cc2)sc1S(N)(=O)=O | HEF | plaque count | 2 (G) | 0.023 µM